Test results: patent US20230293407A1, “Compositions Comprising (Bio)-Alkanediols with Antimicrobials for Product Protection” (Symrise AG, priority 2020, published 2023)

Key:
Test in all cases: preservation efficacy test (PET), European Pharmacopoeia 5.1.3
Assay type in all cases: cell-based
Staphylococcus aureus = Staphylococcus aureus (SA)
Candida albicans = Candida albicans (CA)
Pseudomonas aeruginosa = Pseudomonas aeruginosa (PA)
Escherichia coli = Escherichia coli (EC)

With propanediol caprylate the “number of microorganisms, 2 days” value (Staphylococcus aureus; 2 days after inoculation) was 11.000, the “number of microorganisms, 7 days” value (Staphylococcus aureus; 7 days after inoculation) was 330 and the “number of microorganisms, 14 days” value (Staphylococcus aureus; 14 days after inoculation) was 1. For the same substance, the “number of microorganisms, 28 days” value (Staphylococcus aureus; 28 days after inoculation) was 1, the “number of microorganisms, 2 days” value (Candida albicans; 2 days after inoculation) was 150.000 and the “number of microorganisms, 7 days” value (Candida albicans; 7 days after inoculation) was 750. For the same substance, the “number of microorganisms, 14 days” value (Candida albicans; 14 days after inoculation) was 1, the “number of microorganisms, 28 days” value (Candida albicans; 28 days after inoculation) was 1 and the “number of microorganisms, 2 days” value (Pseudomonas aeruginosa; 2 days after inoculation) was 1. The “number of microorganisms, 7 days” value (Pseudomonas aeruginosa; 7 days after inoculation) was 1, the “number of microorganisms, 14 days” value (Pseudomonas aeruginosa; 14 days after inoculation) was 1 and the “number of microorganisms, 28 days” value (Pseudomonas aeruginosa; 28 days after inoculation) was 1. For the same substance, the “number of microorganisms, 2 days” value (Escherichia coli; 2 days after inoculation) was 96.000, the “number of microorganisms, 7 days” value (Escherichia coli; 7 days after inoculation) was 38.000 and the “number of microorganisms, 14 days” value (Escherichia coli; 14 days after inoculation) was 290. For the same substance, the “number of microorganisms, 28 days” value (Escherichia coli; 28 days after inoculation) was 1.
